The record followed here is publication PMC11162790.

Sequences of proteins named here, by UniProt entry; tags and fusion partners are left off. Residues count along the entry.
UniProt O24973, 3-225: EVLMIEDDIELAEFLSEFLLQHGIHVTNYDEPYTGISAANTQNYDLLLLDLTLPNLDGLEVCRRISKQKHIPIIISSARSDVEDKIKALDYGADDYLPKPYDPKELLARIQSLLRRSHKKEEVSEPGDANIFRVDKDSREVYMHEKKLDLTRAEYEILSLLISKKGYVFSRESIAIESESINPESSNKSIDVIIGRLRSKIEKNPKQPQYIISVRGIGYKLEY

For at least one entry, the source does not settle the construct or the ends of the probe.

The target in data set [1] is ArsR-nP (non-phosphorylated His6-ArsR) (Helicobacter pylori SMI109) (UniProt O24973). Nature of the data set: competition with a labelled probe. Particulars: up to 20 nM competitor vs 5 nM TET-PsabA; Buffer F: 50 mM Tris-acetate pH 7.5, 100 mM K-glutamate, 20 mM Mg-acetate, 5% glycerol, 0.1 ug poly dI-dC, 25 C, 30 min; EMSA 5-7 nM DNA, footprint 25 nM DNA; recombinant protein; residues 3-225; protein details: N-terminal His6 (pET28a), retained; probe letters rebuilt from the primers and the genome; part of a longer molecule. For orientation: Mobility shift assays separate free from complexed probe on a gel.

Data set [2] has as its system sigma70-RNAP holoenzyme (Escherichia coli). Nature of the data set: DNase I footprinting. As to conditions: 300 nM, Buffer F: 50 mM Tris-acetate pH 7.5, 100 mM K-glutamate, 20 mM Mg-acetate, 5% glycerol, 0.1 ug poly dI-dC, 25 C, 30 min, commercial protein, label: TET on primer 485, probe letters rebuilt from the primers and the genome, part of a longer molecule.
Data set [3] concerns the target ArsR-P (phosphorylated His6-ArsR) (Helicobacter pylori SMI109) (UniProt O24973). Nature of the data set: EMSA. As to conditions: Buffer F: 50 mM Tris-acetate pH 7.5, 100 mM K-glutamate, 20 mM Mg-acetate, 5% glycerol, 0.1 ug poly dI-dC, 25 C, 30 min, EMSA 5-7 nM DNA, footprint 25 nM DNA, recombinant protein, residues 3-225, protein details: N-terminal His6 (pET28a), retained, label: TET on primer 485, probe letters rebuilt from the primers and the genome, part of a longer molecule.

For the sequence “CTTATCTAACTCTTTTGGGGTGAGTTTCATCTCATTCTCCTATTCTTAAAGTGTTTTTCCTTGAAGACATAACGAAATCAAGGTTGGATGTAATTGTAGCAATCTTTTGATTTACTAAGATTAACAGAAGCGCTCATTAACTAATTATTATTTAAAATGAATTAGTGTTATAGTTTTGAAGCGCTATAAAAGCGTTATTGGGAGCGCGTTTAATACCCCTTTAGAATTTATAAAGATCAAAAACTCGCAAAAAAATGAGAATTAAAATTGGAGTGATAATGGTGGCCACGACTGGACTTGAACCAGCGGCCACTACCATGTCAAGGTAGTGCTCTA (double strand) [PureA competitor 424 bp]”, in data set [1], the binding result is recorded as “binds”.

Regarding “TCTAGCAATGTGTGGCAACAACAAACGATCCGACAAAACTTCAGCGTTTTTAGGAATAAAGAAGTTTTTGTCAGTTACGCGTTCTTGTTTTAGTGTGGCTTCGTTCCCATTAAACACTGATGATAAAATTCAAAAGATGATTTTATCGTTACAAAAATCAACACTTCAAAGATAAATAGGTTAAAATACTCCAAAATCTTTTTTTTTTTTTGAAATCCAATAAATTTATAGTAAAATTAGGTTCTGATCATGAGAATGTGAACTGACAACATAGTCATAGTCAAAAACATTACTTTAAGGAACACTTTTATGAAAAAG (double strand) [PsabA region 4* (scrambled +2 to +38)]”, the binding result in data set [2] (core promoter -34 to +14) is “binds”. The half-maximal binding in data set [3] amounted to 1390 nM.

As to “TCTAGCAATGTGTGGCAACAACAAACGATCCGACAAAACTTCAGCGTTTTTAGGAATAAAGAAGTTTTTGTCAGTTACGCGTTCTTGTTTTAGTGTGGCTTCGTTCCCATTAAACACTGATGATAAAATTCAAAAGATGATTTTATCGTTACAAAAATCAACGCTTCTCTTGAGCTGCTACAGCTGGTTAGATTCTGATTTTTTTTTTTTTGAAATCCAATAAATTTATAGTAAAATTAGGTTCATTGTAAATATATTATCACTTCATGATATTCTTACAACAAAAACATTACTTTAAGGAACACTTTTATGAAAAAG (double strand) [PsabA region 3* (scrambled -77 to -48)]”, the binding result in data set [2] (core promoter -17 to +24) is reported as “binds”.
